Source: publication PMC10274944

Chains of the proteins cited; added tags and fusions are not shown. Residues count along the entry.
UniProt K9N7C7, 1480-1803: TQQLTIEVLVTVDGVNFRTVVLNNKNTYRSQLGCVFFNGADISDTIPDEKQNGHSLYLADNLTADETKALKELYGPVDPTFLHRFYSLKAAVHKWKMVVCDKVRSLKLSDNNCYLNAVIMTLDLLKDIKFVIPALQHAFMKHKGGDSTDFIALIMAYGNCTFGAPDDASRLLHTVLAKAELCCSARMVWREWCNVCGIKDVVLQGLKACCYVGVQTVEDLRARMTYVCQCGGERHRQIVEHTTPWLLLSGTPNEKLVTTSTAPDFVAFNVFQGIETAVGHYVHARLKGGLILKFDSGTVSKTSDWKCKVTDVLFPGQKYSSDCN

Molecular target: GST-tagged MERS-CoV papain-like protease (PLpro) (MERS-CoV) (UniProt K9N7C7)
Experiment: BLI

“wild-type ubiquitin (from UniProt P0CG48 1-76) (natural protein; other documents disagree on this pair)” was tested, and the pKd was 4.39.

pKd: −log10 of the molar value.
